One series deals with L. infantum. Put plainly: Antileishmanial activity against L. infantum amastigotes in THP-1 macrophages. The settings on record: selectivity index, CC50 (THP-1) / IC50 (L. infantum). The class given is cell-based, Leishmania infantum. On the procedure: The in vitro anti-L. infantum activity (IC50) of each compound was evaluated on THP-1 cells (human leukemia monocytic cell line) infected with L. infantum promastigotes, and the in vitro cytotoxicity (CC50) was determined over the THP-1 cell line. The selectivity index (SI) was calculated as the ratio of the CC50 value determined in the cytotoxicity assay, divided by the IC50 value determined in the antileishmanial activity assay.
Cells derived from the human monocytic strain THP-1 were cultured in complete Rowell Park Memorial Institute (RPMI)-1640 medium (supplemented with 10% fetal bovine serum, 100 U/mL penicillin, and 100 μg/mL streptomycin). Monocytes were differentiated into macrophages by the addition of 20 ng/mL phorbol myristate acetate (PMA). After 72 h, the macrophages (5 × 10^4), in black 96-well microtiter plates (Corning Incorporated, Corning, NY), were infected with Leishmania (Leishmania) infantum (MHOM/BR/1974/PP75) promastigotes transfected with gene tdTomato, on the second day of the stationary phase (20 parasites per macrophage) for 4 h. […] The IC50 values were determined by nonlinear regression using a variable slope model (log(concentration) vs growth inhibition) with the GraphPadPrism v8.2.0 (CA, USA) software. Controls with uninfected cells, untreated infected cells, and infected cells treated with amphotericin B at 0.25 μM (positive control) or DMSO 1% were used. Quadruplicates were run on the same plate, and the experiments were repeated at least once.

For a further series, the system named is L. braziliensis. Put plainly: Inhibition of growth of L. braziliensis in THP-1 macrophages. The format is cell-based, Leishmania braziliensis. The settings on record: selectivity index, CC50 (THP-1) / IC50 (L. braziliensis). The text has this: 1 In Vitro Antileishmanial Potency, Selectivity Index, and ADME Properties of Compounds 1 – 6 | column: L. braziliensis IC50 (μM)^b (SI)^b

Take `C[C@@H]1[C@H](O)[C@@H](C)/C=C/C=C/C=C/C=C/C=C/C=C/C=C/[C@H](O[C@@H]2O[C@H](C)[C@@H](O)[C@H](N)[C@@H]2O)C[C@@H]2O[C@](O)(C[C@@H](O)C[C@@H](O)[C@H](O)CC[C@@H](O)C[C@@H](O)CC(=O)O[C@H]1C)C[C@H](O)[C@H]2C(=O)O` [AmB, Amphotericin B, reference compound]: the “SI (L. infantum)” value in the series on L. infantum was 1455. Further, the “SI (L. braziliensis)” value in the series with L. braziliensis was determined as 2798.

For `O=C(c1ccc(O)c(Cl)c1)N1CCN(c2cnccn2)CC1` [Compound 1, (3-Chloro-4-hydroxyphenyl)(4-(pyrazin-2-yl)piperazin-1-yl)methanone], the “SI (L. infantum)” value with L. infantum is given as 46. In addition, in the series with L. braziliensis, the “SI (L. braziliensis)” value stood at 46.

For `O=C(c1ccc(O)cc1)N1CCN(c2cnccn2)CC1` [Compound 2, (4-Hydroxyphenyl)(4-(pyrazin-2-yl)piperazin-1-yl)methanone], the “SI (L. infantum)” value with L. infantum was 346. Moreover, the “SI (L. braziliensis)” value in the series with L. braziliensis came out at 141.

On to `COc1ccc(C(=O)N2CCN(c3cnccn3)CC2)cc1` [Compound 3, (4-Methoxyphenyl)(4-(pyrazin-2-yl)piperazin-1-yl)methanone], for which the “SI (L. infantum)” value in the series on L. infantum came to 422. In addition, in the series with L. braziliensis, the “SI (L. braziliensis)” value stood at 188.

Regarding `Nc1ccc(C(=O)N2CCN(c3cnccn3)CC2)cn1` [Compound 4, (6-Aminopyridin-3-yl)(4-(pyrazin-2-yl)piperazin-1-yl)methanone], the “SI (L. infantum)” value with L. infantum was 524. The “SI (L. braziliensis)” value in the series on L. braziliensis worked out at 224.

For the molecule `O=C(c1ccc2cc(O)ccc2c1)N1CCN(c2cnccn2)CC1` [Compound 5, (6-Hydroxynaphthalen-2-yl)(4-(pyrazin-2-yl)piperazin-1-yl)methanone], the “SI (L. infantum)” value in the series on L. infantum was found to be 241. Further, the “SI (L. braziliensis)” value with L. braziliensis was determined as 306.

As to `O=C(c1cccc(O)c1O)N1CCN(c2cnccn2)CC1` [Compound 6, (2,3-Dihydroxyphenyl)(4-(pyrazin-2-yl)piperazin-1-yl)methanone], the “SI (L. infantum)” value in the series on L. infantum is recorded as above 1189. Further, the “SI (L. braziliensis)” value in the series on L. braziliensis is recorded as above 16650.

(Values after article PMC12384620, “Hit-to-Lead Studies of Pyrazinylpiperazines against Visceral Leishmaniasis: Pharmacokinetic Profile and In Vivo Efficacy of Potent Compounds against Leishmania infantum” (ACS Pharmacology & Translational Science, 2025).)
